Patent publication US20210340181A1, “Alpha(v)beta(6) integrin-binding peptides and methods of use thereof” (published 2021)
Read-outs that look alike come from different tables or passages of the source.

How the values were obtained:
αvβ6 integrin (purified) [1] = target: αvβ6 integrin (purified) (UniProt P06756)
αvβ3 integrin (purified) = αvβ3 integrin (purified) (UniProt P06756); assay: competitive ELISA vs BtLAP
αvβ8 integrin (purified) [2] = target: αvβ8 integrin (purified) (UniProt P06756); assay: competitive ELISA vs BtLAP
αvβ6 integrin (purified) [3] = target: αvβ6 integrin (purified) (UniProt P06756); remark: listed apart in the source
[4] = target: αvβ6 integrin on DX3puroβ6 (αvβ6+) cells (human) (UniProt P06756); assay: 18F peptide binding to DX3puroβ6 (αvβ6+) cells
[5] = target: αvβ6 integrin on DX3puroβ6 (αvβ6+) cells (human) (UniProt P06756); assay: 18F peptide cell binding, αvβ6+ over αvβ6- cells
[6] = target: αvβ6 integrin on DX3puroβ6 (αvβ6+) cells (human) (UniProt P06756); assay: 18F peptide binding to DX3puroβ6 (αvβ6+) cells, 1 h, gamma counting
αvβ6 integrin (purified) [7] = target: αvβ6 integrin (purified) (UniProt P06756); remark: listed apart in the source
αvβ6 integrin (purified) [8] = target: αvβ6 integrin (purified) (UniProt P06756); remark: listed apart in the source
αvβ8 integrin (purified) [9] = target: αvβ8 integrin (purified) (UniProt P06756); assay: competitive ELISA vs BtLAP (text; the table prints >10)
αvβ6 integrin (purified) [10] = target: αvβ6 integrin (purified) (UniProt P06756); remark: listed apart in the source

P1Q-Scrb, FB-… was tested, and the IC50 (αvβ6 integrin (purified) [1]) was 0.014 µM.
Substance “P1Q-Scrb, FB-… (peptide; modification not given)” has an IC50 (αvβ3 integrin (purified)) of over 100 µM and an IC50 (αvβ8 integrin (purified) [2]) of 2.9 µM.
Substance Peptide-conjugate KL3Q, FB-… has an IC50 (αvβ6 integrin (purified) [3]) of 0.0087 µM.
With “Peptide-conjugate KL3Q, FB-… (peptide; modification not given)” the fold increase in cell binding against N-[^18F]KL3 [4] was 2 fold, the DX3puroβ6 (αvβ6+)/DX3puro (αvβ6-) selectivity ratio [5] was 1.9 and the % binding to cells [6] was 1.3%.
Work on Peptide-conjugate P1K-a, …(FB)KVART yielded an IC50 (αvβ6 integrin (purified) [1]) of 0.021 µM.
“Peptide-conjugate P1K-a, …(FB)KVART (peptide; modification not given)” gave an IC50 (αvβ8 integrin (purified) [2]) of over 100 µM.
Peptide-conjugate P1K-b, FB-… showed an IC50 (αvβ6 integrin (purified) [1]) of 0.01 µM.
With “Peptide-conjugate P1K-b, FB-… (peptide; modification not given)” the IC50 (αvβ3 integrin (purified)) was over 100 µM and the IC50 (αvβ8 integrin (purified) [2]) was over 100 µM.
Substance Peptide-conjugate P1Q, FB-… has an IC50 (αvβ6 integrin (purified) [1]) of 0.012 µM.
Substance “Peptide-conjugate P1Q, FB-… (peptide; modification not given)” has an IC50 (αvβ3 integrin (purified)) of over 100 µM and an IC50 (αvβ8 integrin (purified) [2]) of over 100 µM.
In the case of Peptide-conjugate P3Q, FB-…, the IC50 (αvβ6 integrin (purified) [3]) is reported as 0.004 µM.
In the case of “Peptide-conjugate P3Q, FB-… (peptide; modification not given)”, the DX3puroβ6 (αvβ6+)/DX3puro (αvβ6-) selectivity ratio [5] is reported as 11.8 and the % binding to cells [6] is reported as 20%.
Substance Peptide-conjugate RTD-14mer, FB-… has an IC50 (αvβ6 integrin (purified) [7]) of 0.0004 µM.
Work on “Peptide-conjugate RTD-14mer, FB-… (peptide; modification not given)” yielded a DX3puroβ6 (αvβ6+)/DX3puro (αvβ6-) selectivity ratio [5] of 9.1.
Substance Peptide-conjugate SFLAP3-15mer, FB-… has an IC50 (αvβ6 integrin (purified) [7]) of 0.0013 µM.
Work on “Peptide-conjugate SFLAP3-15mer, FB-… (peptide; modification not given)” yielded a DX3puroβ6 (αvβ6+)/DX3puro (αvβ6-) selectivity ratio [5] of 3.9.
Peptide-conjugate T1, FB-…-PEG28 gave an IC50 (αvβ6 integrin (purified) [8]) of 0.002 µM.
With “Peptide-conjugate T1, FB-…-PEG28 (peptide; modification not given)” the IC50 (αvβ3 integrin (purified)) was over 100 µM and the IC50 (αvβ8 integrin (purified) [2]) was over 100 µM.
Peptide-conjugate T1-V1R, FB-…-PEG28 was tested, and the IC50 (αvβ6 integrin (purified) [8]) was 0.01 µM.
“Peptide-conjugate T1-V1R, FB-…-PEG28 (peptide; modification not given)” gave an IC50 (αvβ3 integrin (purified)) of over 100 µM, an IC50 (αvβ8 integrin (purified) [2]) of over 10 µM and an IC50 (αvβ8 integrin (purified) [9]) of over 100 µM.
Peptide-conjugate T1-a, FB-PEG2-…-PEG28 gave an IC50 (αvβ6 integrin (purified) [8]) of 0.047 µM and a fold drop in affinity against T1 (αvβ6 integrin (purified) [10]) of 24 fold.
Work on “Peptide-conjugate T1-a, FB-PEG2-…-PEG28 (peptide; modification not given)” yielded an IC50 (αvβ3 integrin (purified)) of over 100 µM and an IC50 (αvβ8 integrin (purified) [2]) of over 100 µM.
Substance Peptide-conjugate T1-b, FB-PEG4-…-PEG28 has an IC50 (αvβ6 integrin (purified) [8]) of 0.025 µM and a fold drop in affinity against T1 (αvβ6 integrin (purified) [10]) of 13 fold.
For “Peptide-conjugate T1-b, FB-PEG4-…-PEG28 (peptide; modification not given)”, the IC50 (αvβ3 integrin (purified)) was over 100 µM and the IC50 (αvβ8 integrin (purified) [2]) was over 100 µM.
Peptide-conjugate T1-c, FB-PEG8-…-PEG28 was tested, and the IC50 (αvβ6 integrin (purified) [3]) was 0.101 µM and the fold drop in affinity against T1 (αvβ6 integrin (purified) [10]) was 50 fold.
In the case of “Peptide-conjugate T1-c, FB-PEG8-…-PEG28 (peptide; modification not given)”, the IC50 (αvβ3 integrin (purified)) is reported as over 100 µM and the IC50 (αvβ8 integrin (purified) [2]) is reported as over 100 µM.
Substance “Peptide-conjugate T1-d, FB-PEG12-…-PEG28” has an IC50 (αvβ6 integrin (purified) [3]) of 0.019 µM and a fold drop in affinity against T1 (αvβ6 integrin (purified) [10]) of 9 fold.
Substance “Peptide-conjugate T1-d, FB-PEG12-…-PEG28 (peptide; modification not given)” has an IC50 (αvβ3 integrin (purified)) of over 100 µM and an IC50 (αvβ8 integrin (purified) [2]) of over 100 µM.
Work on “Peptide-conjugate T1-e, FB-PEG28-…-PEG28” yielded an IC50 (αvβ6 integrin (purified) [3]) of 0.078 µM and a fold drop in affinity against T1 (αvβ6 integrin (purified) [10]) of 39 fold.
“Peptide-conjugate T1-e, FB-PEG28-…-PEG28 (peptide; modification not given)” showed an IC50 (αvβ3 integrin (purified)) of over 100 µM and an IC50 (αvβ8 integrin (purified) [2]) of over 100 µM.
Work on Peptide-conjugate T1-f, FB-Amb-…-PEG28 yielded an IC50 (αvβ6 integrin (purified) [3]) of 0.007 µM.
In the case of “Peptide-conjugate T1-f, FB-Amb-…-PEG28 (peptide; modification not given)”, the IC50 (αvβ3 integrin (purified)) is reported as over 100 µM and the IC50 (αvβ8 integrin (purified) [2]) is reported as over 100 µM.
“Peptide-conjugate T1-g, FB-PEG28-Amb-…-PEG28” was tested, and the IC50 (αvβ6 integrin (purified) [3]) was 0.037 µM.
“Peptide-conjugate T1-g, FB-PEG28-Amb-…-PEG28 (peptide; modification not given)” was tested, and the IC50 (αvβ3 integrin (purified)) was over 100 µM and the IC50 (αvβ8 integrin (purified) [2]) was over 100 µM.
